Source: PMC12754628
Construct, isoform or probe ends are uncertain for at least one entry.

Biological target: T1, CcpA (Staphylococcus aureus USA300) (UniProt P99175)
T1 sequence: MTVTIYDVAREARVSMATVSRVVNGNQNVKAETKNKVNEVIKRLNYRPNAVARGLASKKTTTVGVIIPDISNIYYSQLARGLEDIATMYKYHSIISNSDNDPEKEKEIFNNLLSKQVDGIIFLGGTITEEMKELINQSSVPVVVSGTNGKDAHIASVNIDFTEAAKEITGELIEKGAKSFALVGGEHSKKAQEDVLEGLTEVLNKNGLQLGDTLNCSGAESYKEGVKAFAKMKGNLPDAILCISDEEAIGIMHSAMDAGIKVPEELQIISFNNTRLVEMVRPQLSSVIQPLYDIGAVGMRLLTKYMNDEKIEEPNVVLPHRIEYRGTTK
Assay: competition with a labelled probe
Settings: 10-fold unlabeled (500 pmol) against biotin-Pcrt; recombinant protein; residues 1-329; protein details: His6 (pET28a); label: unlabeled as competitor; probe letters rebuilt from the primers and the genome

## GTATTTAATATTTTAACATAAAAAAATTTACAGTTAAGAATAAAAAACGACTAGTTAAGAAAAATTGGAAAATAAATGCTTTTAGCATGTTTTAATATAACTAGATCACAGAGATGTGATGGAAAATAGTTGATGAGTTGTTTAATTTTAAGAATTTTTATCTTAATTAAGGAAGGAGTGATTTCAATGGCACAAGATATCATTTCAACAATCGGTGACTTAGTAAAATGGATTATCGACACAGTGAACAAATTCACTAA (double strand) [Pagr2]
  binding result: binds
